Reference: ChEMBL document CHEMBL1240457, “Synthesis and biological evaluation of cyclic nitrogen mustards based on carnitine framework” (2010)

Legend:
[1] = test system: NCI-H460; test: Cytotoxicity against human H460 cells after 24 hrs by MTT assay
[2] = test system: A-375; test: Cytotoxicity against human A375 cells after 24 hrs by MTT assay

| SMILES | CC50 [1] [µM] | CC50 [2] [µM] |
| --- | --- | --- |
| CCCCCCCCCCCCCCCC(=O)O[C@@H]1[C@@H](C(=O)O)CCC[C@H]1N(CCCl)CCCl | 215 | – |
| CCCCCCCC(=O)O[C@H]1[C@@H](C(=O)O)CCC[C@@H]1N(CCCl)CCCl | – | 322 |
